Measured values published in patent US6514997B2, “Antipicornaviral compounds and compositions, their pharmaceutical uses, and materials for their synthesis” (Agouron Pharmaceuticals, Inc., priority 1999, dated 2003).

Legend:
HRV-14 = test: Antirhinoviral H1-HeLa cell culture assay (XTT cell protection, EC50), HRV-14; assay type: cell-based, human rhinovirus (HRV) serotype-14 in H1-HeLa cells
Procedure: (§1) Antirhinoviral H1-HeLa Cell Culture Assay:
In this cell protection assay, the ability of compounds to protect cells against HRV infection was measured by the XTT dye reduction method, which is described in Weislow et al., J. Natl. Cancer Inst. […] H1-HeLa cells were infected with HRV-14 at a multiplicity of infection (m.o.i.) of 0.13 (virus particles/cell) or mock-infected with medium only. Infected or mock-infected cells were resuspended at 8×10^5 cells per mL, and incubated with appropriate concentrations of the compounds to be tested. Two days later, XTT/PMS was added to test plates and the amount of formazan produced was quantified spectrophotometrically at 450/650 nm. […] The therapeutic index (TI) was calculated by dividing the CC50 value by the EC50 value.
(§2) All strains of human rhinovirus (HRV) for use in this assay were purchased from American Type Culture Collection (ATCC), except for HRV serotype-14 (produced from the infectious cDNA clone constructed by Dr. Robert Rueckert, Institute for Molecular Virology, University of Wisconsin, Madison, Wis.). HRV stocks were propagated and viral assays were performed in H1-HeLa cells (ATCC). Cells were grown in minimal essential medium with 10% fetal bovine serum, available from Life Technologies (Gaithersburg, Md.).

[1] = system: strains of human rhinovirus (HRV); test: Antirhinoviral H1-HeLa cell culture assay (XTT cell protection, EC50), other HRV strains; assay type: cell-based, human rhinovirus in H1-HeLa cells
Procedure: as §1
In this cell protection assay, the ability of compounds to protect cells against HRV infection was measured by the XTT dye reduction method, which is described in Weislow et al., J. Natl. Cancer Inst. (1989), vol. 81, 577-586. H1-HeLa cells were infected with HRV-14 at a multiplicity of infection (m.o.i.) of 0.13 (virus particles/cell) or mock-infected with medium only. Infected or mock-infected cells were resuspended at 8×10^5 cells per mL, and incubated with appropriate concentrations of the compounds to be tested. Two days later, XTT/PMS was added to test plates and the amount of formazan produced was quantified spectrophotometrically at 450/650 nm. The EC50 value was calculated as the concentration of compound that increased the percentage of formazan production in compound-treated, virus-infected cells to 50% of that produced by compound-free, mock-infected cells. The 50% cytotoxic dose (CC50) was calculated as the concentration of compound that decreased the percentage of formazan produced in compound-treated, mock-infected cells to 50% of that produced by compound-free, mock-infected cells. The therapeutic index (TI) was calculated by dividing the CC50 value by the EC50 value.
as §2

| Compound | TI (HRV-14) | TI ([1]; HRV-1A) | TI ([1]; HRV-2) | TI ([1]; HRV-3) | TI ([1]; HRV-9) | TI ([1]; HRV-10) | TI ([1]; HRV-16) | TI ([1]; HRV-25) | TI ([1]; HRV-39) | TI ([1]; HRV-87) | TI ([1]; HRV-11) | TI ([1]; HRV-13) | TI ([1]; HRV-19) | TI ([1]; HRV-23) | TI ([1]; HRV-78) | TI ([1]; HRV-Hanks) |
| --- | --- | --- | --- | --- | --- | --- | --- | --- | --- | --- | --- | --- | --- | --- | --- | --- |
| C#CC[C@@H](C(=O)N[C@H](/C=C/C(=O)OCC(C)(C)C)C[C@@H]1CCNC1=O)n1cccc(NC(=O)c2cc(C)on2)c1=O (relative stereo) [Compound 32, trans-(2′S,3″″S,4S)-4-(2′-{3″-[(5′″-Methylisoxazole-3′″-carbonyl)amino]-2″-oxo-2″H-pyridin-1″-yl}-pent-4′-ynoylamino)-5-(2″″-oxopyrrolidin-3″″-yl)pent-2-enoic acid 2,2-Dimethylpropyl Ester] | >79 | >55 | >95 | >169 | >20 | >64 | >54 | >18 | >24 | >303 | – | – | – | – | – | – |
| CCC(C(=O)N[C@H](/C=C/C(=O)OCC(C)(C)C)C[C@@H]1CCNC1=O)n1cccc(NC(=O)c2cc(C)on2)c1=O (relative stereo) [Compound 42, trans-(2′S,3′″″S,4S)-4-[2′-(3″-{[1′″-(5″″-Methylisoxazol-3″″-yl)methanoyl]amino}-2′″-oxo-2′″H-pyridin-1′″-yl)butanoylamino]-5-(2′″″-oxopyrrolidin-3′″″-yl)pent-2-enoic Acid 2,2-Dimethylpropyl Ester] | >59 | – | >62 | >65 | >19 | – | >24 | >16 | >63 | – | – | – | – | – | – | – |
| Cc1cc(C(=O)Nc2cccn(C(Cc3ccc(F)c(F)c3)C(=O)N[C@H](/C=C/C(=O)OCC(C)(C)C)C[C@@H]3CCNC3=O)c2=O)no1 (relative stereo) [Compound 47, trans-(2′S,3″″″S,4S)-4-[3′-(3″,4″-Difluorophenyl)-2′-(3′″-{[1″″-(5′″″-methylisoxazol-3′″″-yl)methanoyl]amino}-2″″-oxo-2″″H-pyridin-1″″-yl)propanoylamino]-5-(2″″″-oxopyrrolidin-3″″″-yl)pent-2-enoic Acid 2,2-Dimethylpropyl Ester] | >250 | >67 | >75 | >555 | >82 | >87 | >204 | >51 | >59 | – | – | – | – | – | – | – |
| CCOC(=O)/C=C/[C@H](C[C@@H]1CCNC1=O)NC(=O)[C@H](Cc1ccc(F)cc1)n1cccc(NC(=O)c2cc(C)on2)c1=O [Compound 25, trans-(2′S,3′″″S,4S)-4-(3′-(4″-Fluorophenyl)-2′-{3′″-[(5″″-methylisoxazole-3″″-carbonyl)amino]-2′-oxo-2′″H-pyridin-1′″-yl}propionylamino)-5-(2′″″-oxopyrrolidin-3′″″-yl)pent-2-enoic Acid Ethyl Ester] | >5000 | >667 | >2500 | >2500 | >1000 | >2500 | >2000 | >454 | >1111 | >1250 | – | – | – | – | – | – |
| CC[C@@H](C(=O)N[C@H](/C=C/C(=O)OC1CCCC1)C[C@@H]1CCNC1=O)n1cccc(NC(=O)c2cc(Cl)on2)c1=O [Compound 29, trans-(2′S,3″″S,4S)-4-(2′-{3″-[(5′″-Chloroisoxazole-3′″-carbonyl)amino]-2″-oxo-2″H-pyridin-1″-yl}butyrylamino)-5-(2″″-oxopyrroldin-3″″-yl)pent-2-enoic Acid Cyclopentyl Ester] | >126 | >217 | – | – | – | >217 | – | – | – | – | – | – | – | – | – | – |
| CC[C@@H](C(=O)N[C@H](/C=C/C(=O)OC(C)(C)C)C[C@@H]1CCNC1=O)n1cccc(NC(=O)c2cc(C)on2)c1=O [Compound 34, trans-(2′S,3″″S,4S)-4-(2′-{3″-[(5′″-Methylisoxazole-3′″-carbonyl)amino]-2″-oxo-2″H-pyridin-1″-yl}butyrylamino)-5-(2″″-oxopyrrolidin-3″″-yl)pent-2-enoic Acid tert-Butyl Ester] | >81 | – | >64 | >163 | >16 | – | >18 | >10 | >22 | >303 | – | – | – | – | – | – |
| CCOC(=O)/C=C/[C@H](C[C@@H]1CCNC1=O)NC(=O)[C@@H]1CCc2ccc(NC(=O)c3cc(C)on3)c(=O)n21 [Compound 37, trans-(3′S,3′″S,4S)-4-({6′-[(5″-Methylisoxazole-3″-carbonyl)amino]-5′-oxo-1′,2′,3′,5′-tetrahydroindolizine-3′-carbonyl}amino)-5-(2′″-oxopyrrolidin-3′″-yl)-pent-2-enoic Acid Ethyl Ester] | >62 | >93 | >270 | >232 | >82 | >244 | >138 | >61 | >625 | >172 | – | – | – | – | – | – |
| CCOC(=O)/C=C/[C@H](C[C@@H]1CCNC1=O)NC(=O)[C@@H]1CCc2c(Cl)cc(NC(=O)c3cc(C)on3)c(=O)n21 [Compound 39, trans-(3′S,3′″S,4S)-4-({8′-Chloro-6′-[(5″-methylisoxazole-3″-carbonyl)amino]-5′-oxo-1′,2′,3′,5′-tetrahydroindolizine-3′-carbonyl}amino)-5-(2′″-oxopyrrolidin-3′″-yl)-pent-2-enoic Acid Ethyl Ester] | >250 | >238 | >625 | >256 | >208 | >113 | >175 | >93 | >208 | >588 | – | – | – | – | – | – |
| C#CC[C@@H](C(=O)N[C@H](/C=C/C(=O)OC1CCCC1)C[C@@H]1CCNC1=O)n1cccc(NC(=O)c2cc(C)on2)c1=O [Compound 40, trans-(2′S,3′″″S,4S)-4-[2′-(3″-{[1′″-(5″″-Methylisoxazol-3″″-yl)methanoyl]amino}-2′″-oxo-2′″H-pyridin-1′″-yl)pent-4″-ynoylamino]-5-(2′″″-oxopyrrolidin-3′″″-yl)pent-2-enoic Acid Cyclopentyl Ester] | >370 | – | >192 | >178 | >46 | – | >56 | >20 | >61 | >120 | >1666 | >67 | >166 | >181 | >81 | >86 |
| C#CC[C@@H](C(=O)N[C@H](/C=C(\C)C(=O)OCC)C[C@@H]1CCNC1=O)n1cccc(NC(=O)c2cc(C)on2)c1=O [Compound 44, trans-(2′S,3′″″S,4S)-2-Methyl-4-[2′-(3″-{[1′″-(5″″-methylisoxazol-3″″-yl)methanoyl]amino}-2′″-oxo-2′″H-pyridin-1′″-yl)pent-4″-ynoylamino]-5-(2′″″-oxopyrrolidin-3′″″-yl)pent-2-enoic Acid Ethyl Ester] | >6 | – | >8 | – | – | >17 | >9 | >8 | – | – | – | – | – | – | – | – |
| Cc1cc(C(=O)Nc2cccn([C@@H](Cc3ccc(F)c(F)c3)C(=O)N[C@H](/C=C/C(=O)OC(C)(C)C)C[C@@H]3CCNC3=O)c2=O)no1 [Compound 46] | >1666 | >54 | >68 | >222 | >66 | >74 | >62 | >53 | >44 | – | >3333 | >128 | >500 | >909 | >400 | >2000 |
| Cc1cc(C(=O)Nc2cccn([C@@H](Cc3ccc(F)c(F)c3)C(=O)N[C@H](/C=C/C(=O)OC3CCCC3)C[C@@H]3CCNC3=O)c2=O)no1 [Compound 49, trans-(2′S,3″″″S,4S)-4-[3′-(3″,4″-Difluorophenyl)-2′-(3′″-{[1″″-(5′″″-methylisoxazol-3′″″-yl)methanoyl]amino}-2″″-oxo-2″″H-pyridin-1″″-yl)propanoylamino]-5-(2″″″-oxopyrrolidin-3″″″-yl)pent-2-enoic Acid Cyclopentyl Ester] | >2500 | >76 | >120 | >243 | >105 | >131 | >312 | >26 | >68 | – | – | – | – | – | – | – |
